# Several values for one entry are separate records, joined by “and”; a condition that tells them apart may be missing. Equal entries are not always repeated.
# Columns and labels:
# Test in all cases: BLI
# [1] = target: RVC20 VH(Mature)/VK(UA), recombinant human IgG1 (human)
# [2] = target: RVC20 UA Y35S(VH)/S35bN(VH)/F100fL(VH)/Y87F(VK), recombinant human IgG1 (human)
# [3] = target: RVC20 T93S(VK), recombinant human IgG1 (human)
# [4] = target: RVC20 D92N(VK), recombinant human IgG1 (human)
# [5] = target: RVC20 inferred unmutated ancestor (UA), recombinant human IgG1 (human)
# [6] = target: RVC20 S98Y(VH), recombinant human IgG1 (human)
# [7] = target: RVC20 VH(UA)/VK(Mature), recombinant human IgG1 (human)
# [8] = target: RVC20 (mature), recombinant human IgG1 (human)
substance,measurement,setting,value
"RABV G ectodomain K1-S403 (F74H, W121H), strain 9147FRA (domain or fragment)",Kd,[1],26.4 nM and 28.2 nM and 29.4 nM
same,Kd,[2],43.4 nM and 44 nM and 46.7 nM
same,Kd,[3],17.7 nM and 19.2 nM and 20.1 nM
same,Kd,[4],29.6 nM and 32.9 nM and 30.5 nM
same,Kd,[5],1260 nM and 1190 nM and 1430 nM
same,Kd,[6],16 nM and 17.8 nM and 18.4 nM
same,Kd,[7],50 nM and 55.2 nM and 56.6 nM
same,Kd,[8],13.5 nM and 16.5 nM and 17.7 nM
